Target: Legionella pneumophila RalF Sec7 domain with E103K (LpRalF^Sec7/E103K) (Legionella pneumophila, UniProt Q8RT31 1-201, E103K)
Experiment: SEC

B1: Human Arf1 lacking its N-terminal alpha-helix (Δ17Arf1) (domain or fragment, UniProt P84077 18-181, looked up)
chain: MRILMVGLDAAGKTTILYKLKLGEIVTTIPTIGFNVETVEYKNISFTVWDVGGQDKIRPLWRHYFQNTQGLIFVVDSNDRERVNEAREELMRMLAEDELRDAVLLVFANKQDLPNAMNAAEITDKLGLHSLRHRNWYIQATCATSGDGLYEGLDWLSNQLRNQK
notes: also called Arf1-GDP; nucleotide-free Arf1
binding result: binds

— publication PMC3828167 (PLoS Pathogens, 2013)
